Compound potency records, mixed from different reports. Data source: NIAID ChemDB in PubChem.

Shared fields: whole-cell or culture tests; organism: Mycobacterium tuberculosis

MIC bound comes from a single tested concentration. Percent inhibition refers to the dose given; in toxicity tests it is the harm to the cells. ECn is the concentration giving n% inhibition of infection, replication or growth. Conditions beyond the fields shown may differ between rows. A number after MIC or MFC names an inhibition level or a share of isolates. Blank or dashed fields: not listed here.

SMILES,dose,setting,changes,strain,endpoint,method,cells,value
Clc1ccc(-n2ncc(C(c3ccccc3)n3ccnc3)c2-c2ccccc2)c(Cl)c1,,,,ATCC 35820 (streptomycin-resistant),MIC50,,,60.8 µM
CC(C)CCC[C@@H](C)CCC[C@@H](C)CCCC(C)(O)C(O)CO,,,,H37Rv,MIC,,,16 µg/mL
NCCn1[nH]c(=O)c2ccncc2c1=O,12.5 µg/mL,,,H37Rv,inhibition,BACTEC,,0%
CC[C@@H](CO)NCCN[C@@H](CC)CO,,,Ethambutol-resistant,17003,MIC,resazurin,,>19.5 µM
O=C1NC(=O)c2ncccc21,,,,H37Rv,MIC bound,BACTEC,,>12.5 µg/mL
Clc1ccccc1C(c1ccccc1)(c1ccccc1)n1ccnc1,,,,ATCC 35837 (ethambutol-resistant),MIC50,,,≥100 µM
Cc1c(CN2CCN(C)CC2)c(CN2CCN(C)CC2)c(-c2ccc(Cl)cc2)n1C1CCCCC1,,,,H37Rv,MIC,,,<12.5 µg/mL
CCCNC1=C2C[C@@H](C)C[C@@H](OC)[C@@H](OC(=O)CCCN)[C@H](C)/C=C(\C)[C@@H](OC(N)=O)[C@H](OC)/C=C\C=C(/C)C(=O)NC(=CC1=O)C2=O,6.25 µg/mL,,,H37Rv,inhibition,resazurin,,100%
Fc1ccc(-n2ncc(C(c3ccccc3)n3ccnc3)c2-c2ccccc2)cc1,,,,ATCC 35820 (streptomycin-resistant),MIC50,,,≥100 µM
CC1=NN(c2ccc(S(=O)(=O)O)cc2)C(=O)C1N=Nc1ccc(-c2ccc(N=Nc3ccc(OS(=O)(=O)c4ccc(C)cc4)cc3)c(S(=O)(=O)O)c2)cc1,,,,H37Rv,MIC,BACTEC,,≥12.8 µg/mL
CC[C@H]1OC(=O)[C@H](C)[C@@H](O[C@H]2C[C@@](C)(OC)[C@@H](O)[C@H](C)O2)[C@H](C)[C@@H](O[C@@H]2O[C@H](C)C[C@H](N(C)C)[C@H]2O)[C@](C)(OC)C[C@@H](C)C(=O)[C@H](C)[C@@H](O)[C@]1(C)O,,,,S-5M (susceptible),MIC,,,>8 µg/mL
CO[C@H]1/C=C/O[C@@]2(C)Oc3c(C)c(O)c4c(O)c(c(/C=N/N5CCN(C6CCCC6)CC5)c(O)c4c3C2=O)NC(=O)/C(C)=C\C=C\[C@H](C)[C@H](O)[C@@H](C)[C@@H](O)[C@@H](C)[C@H](OC(C)=O)[C@@H]1C,,,,Erdman,MBC,,,0.25 µg/mL
CO[C@H]1/C=C/O[C@@]2(C)Oc3c(C)c(O)c4c(O)c(c(/C=N/N5CCN(C)CC5)c(O)c4c3C2=O)NC(=O)/C(C)=C\C=C\[C@H](C)[C@H](O)[C@@H](C)[C@@H](O)[C@@H](C)[C@H](OC(C)=O)[C@@H]1C,,,,ATCC 35828 (pyrazinamide-resistant),MIC50,,,0.6 µM
COC(COC(N)=O)C1=C(N2CC2)C(=O)C(C)=C(N2CC2)C1=O,,,,H37Rv,MIC,BACTEC,,64 µg/mL
N[C@@H]1CN(c2c(F)cc3c(=O)c(C(=O)O)cn([C@@H]4C[C@@H]4F)c3c2Cl)CC12CC2,,,XDR,Clinical strain,MIC50,resazurin,,0.25 µg/mL
C1=C(c2nc(-c3cccnc3)no2)c2ccccc2C12CCN(CC1CCCO1)CC2,,,Drug-resistant,Beijing (E-47/94),MIC,resazurin,,0.78 µM
CCN(CC)CCCN=c1cc2n(-c3ccc(Cl)c(Cl)c3)c3ccccc3nc-2cc1Nc1ccc(Cl)c(Cl)c1,,multidrug-resistant,,2219,MIC,,,0.25 µg/mL
CC#CC#C/C(=C/C=C/C(=O)OC)SC,12.5 µg/mL,,,H37Rv,inhibition,BACTEC,,15%
COc1ccc(-c2cs/c(=N\NC(=O)COc3cnccn3)n2-c2ccc(Cl)cc2)cc1,,,,H37Rv,MIC,,,11.6 µg/mL
C[C@H]1[C@H](C)CC[C@]2(C(=O)O)CC[C@]3(C)C(=CC[C@@H]4[C@@]5(C)CC[C@H](O)C(C)(C)[C@@H]5CC[C@]43C)[C@H]12,,,,H37Rv,MIC,,,32 µM
Clc1ccc(-n2ncc(C(c3ccccc3)n3ccnc3)c2-c2ccccc2Cl)c(Cl)c1,,,,ATCC 35822 (isoniazid-resistant),MIC90,,,>100 µM
CN(C)c1ccc(/C=N/NC(=O)c2ccc(F)cc2)cc1,,,,H37Rv,EC50,,,>6.25 µg/mL
CO/N=C1\CN(c2nc3c(cc2F)c(=O)c(C(=O)O)cn3C2CC2)CC1CN,,,,206 isolates (susceptible),MIC50,,,4 µg/mL
CCOC(CNCc1cc(C)c2[nH]c3ccccc3c2c1C)OCC,,,,H37Rv,MIC bound,BACTEC,,>12.5 µg/mL
O=C(N/N=C/c1ccco1)c1ccc(F)cc1,,,,H37Rv,EC50,,,>6.25 µg/mL
Cc1ccc(-c2noc(C3=CC4(CCN(CC5CCCO5)CC4)c4ccccc43)n2)cn1,,,Ethambutol-resistant,17003,MIC,resazurin,,1.56 µM
CO[C@H]1/C=C/O[C@@]2(C)Oc3c(C)c(O)c4c(O)c(c(/C=N/N5CCCCCCCCCCCC5)c(O)c4c3C2=O)NC(=O)/C(C)=C\C=C\[C@H](C)[C@H](O)[C@@H](C)[C@@H](O)[C@@H](C)[C@H](OC(C)=O)[C@@H]1C,,,,H37Rv,MIC,BACTEC,VERO,0.4 µg/mL
C[C@]1(COc2ccc(N3CCC(Oc4ccc(OC(F)(F)F)cc4)CC3)cc2)Cn2cc([N+](=O)[O-])nc2O1,,,,36 strains (rifampicin-resistant),MIC90,,,0.012 µg/mL
C/C(=N\NC(=S)N1CCCC1)c1cnccn1,,,,H37Rv,MIC,BACTEC,,≥12.5 µg/mL
COc1ccc(-c2noc(C3=CC4(CCN(CC5CCCO5)CC4)c4ccccc43)n2)cc1,,,Spiroindene-resistant,H37Rv,MIC,turbidity,,0.2 µM
CO/N=C1\CN(c2nc3c(cc2F)c(=O)c(C(=O)O)cn3C2CC2)CC1CN,,,,82 strains,MIC50,,,4 µg/mL
O=C(N/N=C/c1ccc(Br)cc1)c1ccc(F)cc1,6.25 µg/mL,,,H37Rv,inhibition,,,36%
CC1(c2nc3cc(Cl)c(Cl)cc3[nH]2)CCC(C(=O)O)C(C)(C)O1,,,,H37Rv,MIC bound,resazurin,,>6.25 µg/mL
COC(=O)[C@]12CC[C@@H](C)[C@@](C)(O)[C@H]1C1=CC[C@@H]3[C@@]4(C)CC[C@H](O)C(C)(C)[C@@H]4CC[C@@]3(C)[C@]1(C)CC2,,,,H37Rv,MIC,,,32 µM
C[C@H]1COc2c(N3CCN(C)CC3)c(F)cc3c(=O)c(C(=O)O)cn1c23,,,,001-010 (drug-resistant),MIC,,,0.5 µg/mL
c1ccc(-c2c(C(c3ccccc3)n3ccnc3)cnn2-c2ccccc2)cc1,,,,ATCC 35837 (ethambutol-resistant),MIC90,,,>100 µM
CC(=O)OC1CC2C(C)(C)C(=O)C=CC2(C)C2CCC3(C)C(c4ccoc4)OC(=O)C4OC43C12C,,,,H37Rv,MIC bound,resazurin,,>6.25 µg/mL
C=C1C(=O)O[C@@H]2C[C@@]3(C)CCCC(C)=C3C[C@H]12,,,,H37Rv,MIC,,,32 µg/mL
Cc1[nH]c2ccc(N(C)C)cc2c(=O)c1CN1CCCCC1,12.5 µg/mL,,,H37Rv,inhibition,BACTEC,,3%
Fc1ccccc1-c1c(C(c2ccccc2)n2ccnc2)cnn1-c1ccccc1,,,,ATCC 35820 (streptomycin-resistant),MIC50,,,≥100 µM
CC1(C)CC[C@]2(CO)CC[C@]3(C)C(=CCC4[C@@]5(C)CC[C@H](O)C(C)(C)C5CC[C@]43C)C2C1,,,,H37Rv,MIC,,,64 µM
O=C(COc1cnccn1)N/N=c1\scc(-c2ccc(O)cc2)n1-c1ccc(Cl)cc1[N+](=O)[O-],,,,H37Rv,MIC,,,4 µg/mL
CCCCCCn1c(C)cc(CN2CCN(C)CC2)c1C,12.5 µg/mL,,,H37Rv,inhibition,,,82%
O=C(Nc1ccccc1-c1nn(CN2CCNCC2)c(=S)n(CN2CCNCC2)c1=O)C(F)(F)F,12.5 µg/mL,,,H37Rv,inhibition,BACTEC,,0%
Cc1c(F)c(N2CCNC(C)C2)cc2c1c(=O)c(C(=O)O)cn2C1CC1,,,,44 isolates (resistant),MIC50,,,1 µg/mL
C[CH2][Sn]1([CH2]C)[O]C2C(OC)OC3COC(c4ccccc4)OC3C2[O]1,,,,H37Rv,MIC bound,BACTEC,,>12.5 µg/mL
Clc1ccc(-c2c(C(c3ccccc3)n3ccnc3)cnn2-c2ccccc2)cc1,,,,ATCC 27294,MIC90,,,90 µM
O=C(COc1cnccn1)N/N=C1\SCC(=O)N1c1ccc(Cl)cc1Cl,,,,H37Rv,MIC,,,148 µg/mL
NNC(=O)c1ccncc1,,,,MDR-22 (MDR),MIC,,,3.2 µg/mL
O=C(COc1cnccn1)N/N=c1\scc(-c2ccc(O)cc2)n1-c1ccc(Cl)cc1Cl,,,,H37Rv,MIC,,,10.8 µg/mL
Cc1c(CN2CCOCC2)c(CN2CCOCC2)c(-c2ccc(Cl)cc2)n1Cc1ccccc1,,,,103471,MIC,,,16 µg/mL
NC(=O)c1cnccn1,,,,DOL niacin-positive,MIC,,,32 µg/mL
NC(=O)c1cnccn1,,,,Isolate 9739,MIC,,,300 µg/mL
Cc1ccc(C)c(NC2=CC(=O)C(=O)c3ccccc32)c1,,,,H37Rv,MIC,resazurin,VERO,1.56 µg/mL
CC(C)Cn1c(-c2ccc(F)cc2)cs/c1=N\NC(=O)COc1cnccn1,,,,H37Rv,MIC,,,6.9 µg/mL
C[C@H]1COc2c(N3CCN(C)CC3)c(F)cc3c(=O)c(C(=O)O)cn1c23,,,,82 strains,MIC50,,,0.5 µg/mL
C/C(=C\C(=O)Nc1ccccc1)Nc1c(C)n(C)n(-c2ccccc2)c1=O,12.8 µg/mL,,,H37Rv,inhibition,BACTEC,,10%
C[C@@H]1Cn2cc(C(=O)O)c(=O)c3cc(F)c(N4CCN(/C(N)=N/C(N)=NCCCCCCN=C(N)/N=C(\N)N5CCN(c6c(F)cc7c(=O)c(C(=O)O)cn8c7c6O[C@@H](C)C8)CC5)CC4)c(c32)O1,,,,ATCC35821,MIC,broth dilution,,2.5 µg/mL
CO[C@H]1/C=C/O[C@@]2(C)Oc3c(C)c(O)c4c(O)c(c(/C=N/N5CCN(C6CCCC6)CC5)c(O)c4c3C2=O)NC(=O)/C(C)=C\C=C\[C@H](C)[C@H](O)[C@@H](C)[C@@H](O)[C@@H](C)[C@H](OC(C)=O)[C@@H]1C,,,,12761,MIC,,,0.04 µg/mL
COc1ccc(-c2noc(C3=CC4(CCN(Cc5nc(C)no5)CC4)c4ccccc43)n2)cc1,,,,H37Rv,MIC,resazurin,,50 µM
O=C(N/N=C/c1ccc([N+](=O)[O-])cc1)c1ccc(F)cc1,,,,H37Rv,EC50,,,>6.25 µg/mL
CC(C)(C)c1ccc(CN2CCC3(CC2)C(=O)Nc2ccccc23)cc1,,,,H37Rv,MBC,colony count / visual reading,,12 µM
CC1(C)COC2(OC1)C1=NS(=O)(=O)CC13CCC2C3(C)C,,,,H37Rv,MIC bound,BACTEC,,>12.5 µg/mL
CO[C@H]1/C=C/O[C@@]2(C)Oc3c(C)c(O)c4c(O)c(c(/C=N/N5CCN(C)CC5)c(O)c4c3C2=O)NC(=O)/C(C)=C\C=C\[C@H](C)[C@H](O)[C@@H](C)[C@@H](O)[C@@H](C)[C@H](OC(C)=O)[C@@H]1C,,,,6 strains (rifampicin-resistant),MIC90,,,100 µg/mL
CN/N=C(/CC(=O)c1sc(NNC(C)=O)nc1C)C(=O)Nc1ccc(OC)cc1OC,,,,H37Rv,MIC bound,resazurin,,>6.25 µg/mL
Fc1ccc(-c2c(C(c3ccccc3)n3ccnc3)cnn2-c2ccc(F)cc2F)cc1,,,,ATCC 35828 (pyrazinamide-resistant),MIC90,,,≥100 µM
Cc1c(CN2CCN(C)CC2)cc(-c2ccc(Cl)cc2)n1-c1ccc(Cl)cc1,,,,103471,MIC,,,0.7 µg/mL
CC(=O)Nc1ccc(/C=N/NC(N)=S)cc1,,,,ATCC 27294,MIC,,,15 µg/mL
Nc1nc(Cl)c(Cl)nc1C(=O)O,12.5 µg/mL,,,H37Rv,inhibition,BACTEC,,32%
CO[C@H]1/C=C/O[C@@]2(C)Oc3c(C)c(O)c4c(O)c(c(/C=N/N5CCN(C/C=C/c6ccccc6)CC5)c(O)c4c3C2=O)NC(=O)/C(C)=C\C=C\[C@H](C)[C@H](O)[C@@H](C)[C@@H](O)[C@@H](C)[C@H](OC(C)=O)[C@@H]1C,,,,MTB14 (RIF-S),MIC,,,≤0.06 µg/mL
COC(=O)C1C2CC3c4[nH]c5cc(OC)ccc5c4CCN3CC2CC(OC(=O)c2cccc(N)c2)C1OC,,,,H37Rv,MIC bound,BACTEC,,>12.5 µg/mL
Cc1[nH]c(-c2ccc(Cl)cc2)cc1CN1CCN(C)CC1,,,,103471,MIC,,,8 µg/mL

A second listing of 7 rows from above:

{"SMILES": "Cc1c(CN2CCOCC2)c(CN2CCOCC2)c(-c2ccc(Cl)cc2)n1Cc1ccccc1", "strain": "103471", "endpoint": "MIC", "value": "16 µg/mL"}
{"SMILES": "Fc1ccccc1-c1c(C(c2ccccc2)n2ccnc2)cnn1-c1ccccc1", "strain": "ATCC 35820 (streptomycin-resistant)", "endpoint": "MIC50", "value": "≥100 µM"}
{"SMILES": "O=C(Nc1ccccc1-c1nn(CN2CCNCC2)c(=S)n(CN2CCNCC2)c1=O)C(F)(F)F", "dose": "12.5 µg/mL", "strain": "H37Rv", "endpoint": "inhibition", "method": "BACTEC", "value": "0%"}
{"SMILES": "Cc1[nH]c2ccc(N(C)C)cc2c(=O)c1CN1CCCCC1", "dose": "12.5 µg/mL", "strain": "H37Rv", "endpoint": "inhibition", "method": "BACTEC", "value": "3%"}
{"SMILES": "CC1(C)CC[C@]2(CO)CC[C@]3(C)C(=CCC4[C@@]5(C)CC[C@H](O)C(C)(C)C5CC[C@]43C)C2C1", "strain": "H37Rv", "endpoint": "MIC", "value": "64 µM"}
{"SMILES": "O=C(N/N=C/c1ccco1)c1ccc(F)cc1", "strain": "H37Rv", "endpoint": "EC50", "value": ">6.25 µg/mL"}
{"SMILES": "O=C(COc1cnccn1)N/N=c1\\scc(-c2ccc(O)cc2)n1-c1ccc(Cl)cc1Cl", "strain": "H37Rv", "endpoint": "MIC", "value": "10.8 µg/mL"}